Compound potency records, mixed from different reports. Data source: NIAID ChemDB in PubChem.

All rows: whole-cell or culture tests; species: Mycobacterium tuberculosis

ECn: concentration that inhibits the pathogen or its effect by n%.

structure	strain or isolate	dose	read by	read-out	mutations	result
CO[C@H]1/C=C/O[C@@]2(C)Oc3c(C)c(O)c4c(O)c(c(/C=N/N5CCN(C)CC5)c(O)c4c3C2=O)NC(=O)/C(C)=C\C=C\[C@H](C)[C@H](O)[C@@H](C)[C@@H](O)[C@@H](C)[C@H](OC(C)=O)[C@@H]1C	H37Ra			Median MIC		0.005 µg/mL
N#Cc1c(NC(=O)c2c(F)c(F)c(F)c(F)c2F)sc2c1CCOC2	ATCC 35822		turbidity	EC90		13 µM
Nc1ccc2cccc(S(=O)(=O)O)c2c1	H37Rv			MIC		>100 µg/mL
NC(=O)c1cnccn1	Isolate 10347 monodrug-resistant			MIC		>300 µg/mL
CCSc1nc2ccccc2o1	H37Rv			MIC		>100 µg/mL
C=CCNc1nc(NC(=O)OCC)cc(NC(=O)OCC)c1[N+](=O)[O-]	H37Rv			EC50		>12.5 µg/mL
Cc1ccc(NCCNCC(C)(C)O)c2c(=O)c3ccc(Cl)cc3sc12	H37Rv		BACTEC	MIC		0.8 µg/mL
O=C(O)c1ccccn1	H37Rv			MIC		>100 µg/mL
CO[C@H]1/C=C/O[C@@]2(C)Oc3c(C)c(O)c4c(O)c(c(/C=N/N5CCN(C)CC5)c(O)c4c3C2=O)NC(=O)/C(C)=C\C=C\[C@H](C)[C@H](O)[C@@H](C)[C@@H](O)[C@@H](C)[C@H](OC(C)=O)[C@@H]1C	H37Rv			MIC		>0.1 µg/mL
CN[C@@H]1[C@@H](O)[C@@H](O[C@@H]2[C@@H](O)[C@H](O[C@H]3O[C@H](CN)CC[C@H]3N)[C@@H](N)C[C@H]2N)OC[C@]1(C)O	H37Rv			Mean MIC		6 µg/mL
CC1=CC(=O)C=CC1=O	H37Rv			MIC		50 µg/mL
CCOC(=O)Nc1cc(NCCc2ccc(S(N)(=O)=O)cc2)c2ncc(C)nc2n1	H37Rv			EC50		>12.5 µg/mL
OCCC1CCCCC1	H37Rv			MIC		>100 µg/mL
CCCCCCCCCCCNCCNC(C)CC(C)C				MIC		25 µM
NC[C@H]1O[C@H](O[C@H]2[C@H](O)[C@@H](O[C@H]3O[C@H](CO)[C@@H](O)[C@H](N)[C@H]3O)[C@H](N)C[C@@H]2N)[C@H](O)[C@@H](O)[C@@H]1O	H37Rv			Mean MIC		1.56 µg/mL
CCC(CO)NCCNCC(c1ccccc1)c1ccccc1				MIC		9.4 µM
CO[C@H]1/C=C/O[C@@]2(C)Oc3c(C)c(O)c4c(O)c(c5c(c4c3C2=O)NC2(CCN(CC(C)C)CC2)N=5)=NC(=O)/C(C)=C\C=C\[C@H](C)[C@H](O)[C@@H](C)[C@@H](O)[C@@H](C)[C@H](OC(C)=O)[C@@H]1C	Strain 118 (Q513L)			MIC		16 µg/mL
CNCC(=O)O	H37Rv			MIC		>100 µg/mL
CCOC(=O)Nc1cc(NC(c2ccccc2)c2ccccc2)c2nc(-c3ccc(Cl)cc3)cnc2n1	H37Rv	12.5 µg/mL		inhibition		0%
Nc1nn[nH]n1	H37Rv			MIC		>100 µg/mL
O=C1CSC(c2ccc([N+](=O)[O-])cc2)N1C(=O)NCCCN1c2ccccc2Sc2ccccc21	H37Rv	25 µg/mL	agar	inhibition		30%
S=c1[nH]c2ccccc2[nH]1	H37Rv			MIC		>100 µg/mL
CC(=O)Nc1ccc(OCC(=O)NN2C(=O)C(C)SC2/C=C/c2ccccc2)cc1	H37Rv	12.5 µg/mL		inhibition		18%
O=C1CSC(c2cccc(Cl)c2)N1C(=O)NCCCN1c2ccccc2Sc2ccccc21	H37Rv	25 µg/mL	agar	inhibition		30%
CCNC(=O)c1c(NC(=O)c2c(F)c(F)c(F)c(F)c2F)sc2c1CCN(CC)C2	ATCC35838		turbidity	MIC		9.2 µM
CCOC(=O)Nc1cc(N)c([N+](=O)[O-])c(NC(C)C(=O)c2ccccc2)n1	H37Rv			EC50		>12.5 µg/mL
CCCCC(CC)CN1CN(CC(CC)CCCC)CC(C)(NCCNCc2ccc3c(c2)OCO3)C1				MIC		12.5 µM
COc1ccc(CCC(=O)O)c(O)c1	H37Rv			MIC		>100 µg/mL
CCOC(=O)Nc1cc2c(c(N)n1)[N+](=O)OC(c1ccccc1)NN2	H37Rv			EC50		>12.5 µg/mL
CC(=O)Nc1ccc(OCC(=O)NN2C(=O)CSC2c2ccccc2)cc1	H37Rv			EC50		>12.5 µg/mL
CCN1CCc2c(sc(NC(=O)c3c(F)c(F)c(F)c(F)c3F)c2C#N)C1	H37Rv		turbidity	MIC	rpoB S522L mutant	18 µM
O=C(O)C#CC(=O)O	H37Rv			MIC		>100 µg/mL
CCN1CCc2c(sc(NC(=O)c3c(F)c(F)c(F)c(F)c3F)c2C(=O)NC)C1	H37Rv		turbidity	EC50	rpoB S522L mutant	1.5 µM
Cc1cccc(/C=N/C(=O)NCCCN2c3ccccc3Sc3ccccc32)c1	H37Rv	25 µg/mL	agar	inhibition		24%
CC[C@H]1OC(=O)[C@H](C)[C@@H](O[C@H]2C[C@@](C)(OC)[C@@H](O)[C@H](C)O2)[C@H](C)[C@@H](O[C@@H]2O[C@H](C)C[C@H](N(C)C)[C@H]2O)[C@](C)(OC)C[C@@H](C)C(=O)[C@H](C)[C@@H](O)[C@]1(C)O	H37Rv			Mean MIC		10 µg/mL
O=[N+]([O-])c1ccc(/C=C/c2ccccn2)cc1	H37Rv			MIC		>100 µg/mL
CCOC(=O)c1c(NC(=O)c2c(F)c(F)c(F)c(F)c2F)sc2c1CCNC2=O			low oxygen	EC50		1.3 µM
Cc1cc(Cl)ccc1SCC(=O)O	H37Rv			MIC		>100 µg/mL
COc1ccc(C2SC(C)C(=O)N2NC(=O)COc2ccc(NC(C)=O)cc2)cc1	H37Rv			EC50		>12.5 µg/mL
O=C1CSC(c2ccc(Br)cc2)N1C(=O)NCCCN1c2ccccc2Sc2ccccc21	H37Rv	50 µg/mL	agar	inhibition		68%
CCN(CC)CCSSCCN(CC)CC.Cl	H37Rv			MIC		>100 µg/mL
C[C@H]1COc2c(N3CCN(C)CC3)c(F)cc3c(=O)c(C(=O)O)cn1c23	001-011 (drug-resistant)			MIC		0.5 µg/mL
CC(C)CCCC(C)C1CCC2C3CC=C4CC(C(=O)O)CCC4(C)C3CCC12C	H37Rv			MIC		>100 µg/mL
CCOC(=O)c1cc(-c2ccccc2)sc1NC(=O)C1C=C(C(F)(F)F)C=C1C(F)(F)F	H37Rv		resazurin	MIC		>100 µg/mL
O=C(O)C1CSC(c2ccc(O)cc2)N1	H37Rv			MIC		50 µg/mL
CC(=O)O[C@H]1C[C@@]2(C)[C@@H](C[C@@H](O)[C@H]3[C@@]4(C)CC[C@@H](O)[C@@H](C)[C@@H]4CC[C@@]32C)/C1=C(\CCC=C(C)C)C(=O)O	H37Rv			Mean MIC		8 µg/mL
CCc1ccc([C@H]2C[C@@H](C(F)(F)F)n3ncc(C(=O)NCc4ccc5c(c4)OCO5)c3N2)cc1	H37Rv		fluorescence	fold resistance	MmpL3: Phe255Val	1.9
O=[N+]([O-])c1cc([As](=O)(O)O)ccc1Nc1ccccc1	H37Rv			MIC		>100 µg/mL
CC(=O)NC[C@H]1CN(c2ccc(N3CCN(c4ccc([N+](=O)[O-])s4)CC3)c(F)c2)C(=O)O1	M-168			MIC		0.25 µg/mL
O=C(NCCCN1c2ccccc2Sc2ccccc21)N1C(=O)/C(=C\c2ccc([N+](=O)[O-])cc2)SC1c1ccc([N+](=O)[O-])cc1	H37Rv	25 µg/mL	agar	inhibition		32%
CCOC(=O)c1c(NC(=O)c2c(F)c(F)c(F)c(F)c2F)sc2c1CCOC2			low oxygen	EC50		0.25 µM
Cc1onc(-c2ccccc2Cl)c1C(=O)N[C@@H]1C(=O)N2[C@@H]1SC(C)(C)[C@@H]2C(=O)O	H37Ra			Mean MIC		112 µg/mL
Cc1cccc2c1NC(=O)C2=O	H37Rv			MIC		50 µg/mL
Fc1ccccc1CNCCNC(c1ccccc1)c1ccccc1				MIC		50 µM
CC(=O)Nc1ccc(S(=O)(=O)Cl)cc1	H37Rv			MIC		>100 µg/mL
CCN1CCc2c(sc(N)c2C(=O)NC2C3CC4CC(C3)CC2C4)C1	H37Rv		resazurin	MIC		>100 µg/mL
Nc1ccc2[nH]ncc2c1	H37Rv			MIC		50 µg/mL
COc1cc(C2SCC(=O)N2NC(=O)COc2ccc(NC(C)=O)cc2)cc(OC)c1OC	H37Rv			EC50		>12.5 µg/mL

A second listing of 4 rows from above:

| structure | strain or isolate | dose | read by | read-out | mutations | result |
|---|---|---|---|---|---|---|
| CC[C@H]1OC(=O)[C@H](C)[C@@H](O[C@H]2C[C@@](C)(OC)[C@@H](O)[C@H](C)O2)[C@H](C)[C@@H](O[C@@H]2O[C@H](C)C[C@H](N(C)C)[C@H]2O)[C@](C)(OC)C[C@@H](C)C(=O)[C@H](C)[C@@H](O)[C@]1(C)O | H37Rv |  |  | Mean MIC |  | 10 µg/mL |
| CC(=O)Nc1ccc(S(=O)(=O)Cl)cc1 | H37Rv |  |  | MIC |  | >100 µg/mL |
| CNCC(=O)O | H37Rv |  |  | MIC |  | >100 µg/mL |
| O=C1CSC(c2cccc(Cl)c2)N1C(=O)NCCCN1c2ccccc2Sc2ccccc21 | H37Rv | 25 µg/mL | agar | inhibition |  | 30% |

Fold resistance: result on the changed form divided by that on wild type. Blank or dashed fields: not listed here. Inhibition is in % at the dose shown (toxicity tests: loss of growth or viability). Conditions beyond the fields shown may differ between rows.